Test results published in paper PMC6355801, “The compound TB47 is highly bactericidal against Mycobacterium ulcerans in a Buruli ulcer mouse model” (Nature Communications, 2019).

Legend:
M. marinum = test: MIClux in liquid using bioluminescence, M. marinum strains
M. smegmatis = test: MIC by microplate Alamar blue assay, M. smegmatis wild-type and recombinant strains
M. ulcerans = test: MIClux in liquid using bioluminescence, M. ulcerans strains; assay type: cell-based, Mycobacterium ulcerans

COc1ccn2nc(C)c(C(=O)NCc3ccc(N4CCC(c5ccc(OC(F)(F)F)cc5)CC4)cc3)c2c1 [TB47]
MIClux (M. marinum; M. marinum Wild-type (Autoluminescent strain)): 0.001 to 0.008 µg/mL
MIClux (M. marinum; M. marinum Wild-type:: qcrB^THR323ALA, over-expression): > 128 µg/mL
MIClux (M. marinum; M. marinum Wild-type:: qcrB^WT, over-expression of wild-type qcrB): 32 to 64 µg/mL
MIC (M. smegmatis; MsmΔcydAB::cydAB^Mtb): 37.5 µg/mL
MIC (M. smegmatis; MsmΔcydAB::cydAB^Mu): 6.5 µg/mL
MIClux (M. ulcerans; M. ulcerans Wild-type (AlMu 1059)): 0.0016 µg/mL
MIClux (M. ulcerans; M. ulcerans Wild-type:: qcrB^THR323PRO, over-expression): 0.10 to 0.40 µg/mL
MIClux (M. ulcerans; M. ulcerans Wild-type:: qcrB^WT, over-expression of wild-type qcrB): 0.05 to 0.10 µg/mL
MIClux (M. ulcerans; M. ulcerans Wild-type:: vector (empty plasmid)): 0.0016 to 0.0031 µg/mL
